Pooled drug test results. Numbers come from NIAID ChemDB, via PubChem.

Shared fields: host cell toxicity; cell line: CEM; read-out: CC50

CCn: concentration that lowers growth or viability of the cells by n%. An empty or dashed field is not shown. Rows are shuffled and stem from different studies.

structure	method	result
CCCCO[C@]12CS(=O)(=O)O[C@@]13[C@@H](CN2)O[C@@H](n1cc(C)c(=O)[nH]c1=O)[C@@H]3O		>125 µM
CCc1c(C(=O)c2cc(C)cc(C)c2)n(CC2CC2)c(=O)[nH]c1=O		>1220 µM
Cc1c(Cc2ccc3ccccc3c2)n(COCCO)c(=O)[nH]c1=O		99.37 µM
CCCCCO[C@]12CS(=O)(=O)O[C@@]13[C@@H](CN2)O[C@@H](n1cc(C)c(=O)[nH]c1=O)[C@@H]3O[Si](C)(C)C(C)(C)C		10.1 µM
CCc1c(Sc2cc(C)cc(C)c2)n(CC2CC2)c(=O)[nH]c1=O		21.2 µM
CN1c2c(-c3ccccc3)nn(CC(=O)N/N=C/c3cccc([N+](=O)[O-])c3)c2-c2ccccc2S1(=O)=O		99.6 µM
Cc1cc(C)cc(Sc2c(C(C)C)c(=O)[nH]c(=O)n2CCC2CC=CC2)c1		15.6 µM
O=C(N[C@@H](CO)C(=O)O)c1ccccc1SSc1ccccc1C(=O)N[C@@H](CO)C(=O)O		>100 µM
CC(C)(C)[Si](C)(C)O[C@H]1[C@H](n2ccc(=O)[nH]c2=O)O[C@H](CO)C1(O)C(N=[N+]=[N-])C(N)=O	propidium iodide / flow cytometry	>50 µM
COC1=C(C2=C(Cl)C(=O)c3ccccc3C2=O)C(=O)c2ccc3c(c2C1=O)C=CC(C)(C)O3	MTT	3.5 µM
CCOCn1c(Cc2cccc3ccccc23)c(CC)c(=O)[nH]c1=O		88.4 µM
CC(C)(C)[Si](C)(C)OC[C@H]1O[C@@H](n2ccc(=O)[nH]c2=O)[C@H](O[Si](C)(C)C(C)(C)C)[C@@]12O[C@H]2C(=O)NO	propidium iodide / flow cytometry	4.5 µM
CCc1c(Sc2ccccc2)n(CC2CC=CC2)c(=O)[nH]c1=O		39.9 µM
COC(=O)[C@H](CCCCN)NC(=O)c1ccccc1SSc1ccccc1C(=O)N[C@@H](CCCCN)C(=O)OC		>100 µM
COCn1c(Cc2cccc3ccccc23)c(C)c(=O)[nH]c1=O		127 µM
COC(=O)CC1(O)C(O[Si](C)(C)C(C)(C)C)[C@H](n2ccc(=O)[nH]c2=O)O[C@@H]1CO[Si](C)(C)C(C)(C)C	propidium iodide / flow cytometry	4.8 µM
COc1cc(/C=N/NC(=O)Cn2nc(-c3ccccc3)c3c2-c2ccccc2S(=O)(=O)N3C)cc(OC)c1OC		75.4 µM
COc1ccc2c(c1)OCC1c3cc(O)c(OCc4ccc5ccccc5c4)cc3OC21		34.2 µM
COc1cc(Cc2cnc(/N=C3\C(=O)N(CN4CCN(c5cccc(C(F)(F)F)c5)CC4)c4ccc(F)cc43)nc2N)cc(OC)c1OC	XTT	127 µg/mL
COc1ccc(/C=N/NC(=O)Cn2nc(-c3ccccc3)c3c2-c2ccccc2S(=O)(=O)N3C)c(OC)c1		>100 µM
Cc1cc(C)cc(C(=O)c2c(C(C)C)c(=O)[nH]c(=O)n2CC2CCCC2)c1		17.9 µM
CCOCn1c(Cc2ccc3ccccc3c2)c(C)c(=O)[nH]c1=O		97.2 µM
O=c1[nH]c(=O)n([C@H]2O[C@@H](CO)[C@H](O)[C@@H]2F)cc1/C=C/Br		>100 µM
COC(=O)/C=C1/[C@@H](O[Si](C)(C)C(C)(C)C)[C@H](n2cc(C)c(=O)n(C)c2=O)O[C@@H]1CO[Si](C)(C)C(C)(C)C	propidium iodide / flow cytometry	41 µM
Cc1cc(C)cc(Sc2c(C(C)C)c(=O)[nH]c(=O)n2CCC2CCCC2)c1		16.6 µM
CN1c2c(-c3ccccc3)nn(CC(=O)N/N=C/c3ccccc3Br)c2-c2ccccc2S1(=O)=O		36.6 µM
CO[C@]12CS(=O)(=O)O[C@@]13C(CN2)O[C@@H](n1cc(C)c(=O)[nH]c1=O)[C@@H]3O[Si](C)(C)C(C)(C)C		111 µM
Cc1cc(C)cc(Oc2c(C(C)C)c(=O)[nH]c(=O)n2CC2CCCC2)c1		19.1 µM
COc1cc(Cc2cnc(/N=C3\C(=O)N(CN4CCN(c5cccc(Cl)c5)CC4)c4ccc(F)cc43)nc2N)cc(OC)c1OC	XTT	104 µg/mL
O=c1[nH]c(=O)n([C@H]2O[C@@H](CO)[C@H](O)[C@H]2F)cc1/C=C/Br		>100 µM
COc1cc(Cc2cnc(/N=C3\C(=O)N(CN4CCCC4)c4ccc(F)cc43)nc2N)cc(OC)c1OC	XTT	121 µg/mL
O=C(N[C@@H](CCC1CCCCC1)C(=O)O)c1ccccc1SSc1ccccc1C(=O)N[C@@H](CCC1CCCCC1)C(=O)O		75 µM
COC1=C(C2=C(Cl)C(=O)c3ccccc3C2=O)C(=O)c2ccccc2C1=O	MTT	2.8 µM
CN1c2c(-c3ccccc3)nn(CC(=O)N/N=C/c3ccc(Cl)cc3Cl)c2-c2ccccc2S1(=O)=O		>100 µM
COc1ccc2c(c1)OCC1c3cc(O)c(OCc4cccc5ccccc45)cc3OC21		38.5 µM
COc1cc(Cc2cnc(/N=C3\C(=O)N(CN4CCN(C)CC4)c4ccc(F)cc43)nc2N)cc(OC)c1OC	XTT	115 µg/mL
Cc1c(Cc2cccc3ccccc23)n(COCCO)c(=O)[nH]c1=O		125 µM
CC[C@H](C)[C@H](NC(=O)c1ccccc1SSc1ccccc1C(=O)N[C@H](C(=O)O)[C@@H](C)CC)C(=O)O		140 µM
COc1ccc2c(c1)C(=O)C(C1=C(O)c3ccccc3C(=O)C1=O)=C(Cl)C2=O	MTT	10 µM
CCCc1c(Cc2ccc3ccccc3c2)n(COC)c(=O)[nH]c1=O		54.4 µM
CC(C)(C)[Si](C)(C)OC[C@H]1O[C@@H](n2ccc(=O)[nH]c2=O)[C@H](O[Si](C)(C)C(C)(C)C)[C@@]12O[C@H]2C(N)=O	propidium iodide / flow cytometry	20 µM
CC[C@H](C)[C@@H](CCC(=O)O)NC(=O)c1ccccc1SSc1ccccc1C(=O)N[C@H](CCC(=O)O)[C@@H](C)CC		60 µM
O=C1C(=O)c2ccccc2C(O)=C1C1=C(Cl)C(=O)c2ccccc2C1=O	MTT	5.3 µM
C#CCO[C@]12CS(=O)(=O)O[C@@]13[C@@H](CN2)O[C@@H](n1cc(C)c(=O)[nH]c1=O)[C@@H]3O[Si](C)(C)C(C)(C)C		66.2 µM
COc1ccc2c(c1)C(O)=C(C1=C(Cl)C(=O)c3ccccc3C1=O)C(=O)C2=O	MTT	5.5 µM
Cc1cn([C@@H]2O[C@@H]3CN[C@@]4(C#N)CS(=O)(=O)O[C@@]34[C@H]2O[Si](C)(C)C(C)(C)C)c(=O)[nH]c1=O		103 µM
Cc1cc(C)cc(Sc2c(C(C)C)c(=O)[nH]c(=O)n2CC2CC2)c1		12.8 µM
NC(=O)CC[C@H](NC(=O)c1ccccc1SSc1ccccc1C(=O)N[C@@H](CCC(N)=O)C(=O)O)C(=O)O		>100 µM
CCc1c(Cc2cccc3ccccc23)n(COC)c(=O)[nH]c1=O		106 µM

A second listing of 6 rows from above:

structure | method | result
CC(C)(C)[Si](C)(C)O[C@H]1[C@H](n2ccc(=O)[nH]c2=O)O[C@H](CO)C1(O)C(N=[N+]=[N-])C(N)=O | propidium iodide / flow cytometry | >50 µM
COc1ccc2c(c1)C(=O)C(C1=C(O)c3ccccc3C(=O)C1=O)=C(Cl)C2=O | MTT | 10 µM
COc1ccc2c(c1)C(O)=C(C1=C(Cl)C(=O)c3ccccc3C1=O)C(=O)C2=O | MTT | 5.5 µM
CCc1c(Cc2cccc3ccccc23)n(COC)c(=O)[nH]c1=O |  | 106 µM
CC(C)(C)[Si](C)(C)OC[C@H]1O[C@@H](n2ccc(=O)[nH]c2=O)[C@H](O[Si](C)(C)C(C)(C)C)[C@@]12O[C@H]2C(=O)NO | propidium iodide / flow cytometry | 4.5 µM
O=c1[nH]c(=O)n([C@H]2O[C@@H](CO)[C@H](O)[C@@H]2F)cc1/C=C/Br |  | >100 µM